These results are taken from ChEMBL document CHEMBL3232785, “Basic quinolinonyl diketo acid derivatives as inhibitors of HIV integrase and their activity against RNase H function of reverse transcriptase” (J Med Chem, 2014).

This assay addresses Human immunodeficiency virus type 1 integrase (Human immunodeficiency virus 1) (UniProt Q7ZJM1). Briefly: Ratio of IC50 for HIV1 integrase 3'-processing activity to IC50 for HIV1 integrase strand transfer activity.

The structures appear in SMILES notation.

On to `O=C(O)/C(O)=C/C(=O)c1cn(Cc2ccc(F)cc2)c2cc(N3CCOCC3)ccc2c1=O`, for which the Ratio IC50 turned out to be 100.

In the case of `O=C(O)/C(O)=C/C(=O)c1cn(Cc2ccc(F)cc2)c2cc(N3CCN(CCCCl)CC3)ccc2c1=O`, the Ratio IC50 is 100.
